Kdimer by position in the HIV-1 leader RNA

Source: Ye et al. 2022 (doi:10.1038/s41594-022-00746-2), supplementary data.

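Randomly mutated transcripts starting with one, two or three G (1G, 2G, 3G), capped or uncapped, were folded for 30 min at 37 °C. Monomer and dimer bands were cut from native gels after folding in high salt (300 mM KCl, 5 mM MgCl2) or low salt (40 mM KCl, 0.1 mM MgCl2). Mutation frequencies in the two bands give Kdimer.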

Sequence of the HIV-1 NL4-3 5' RNA, positions 1 to 437, as numbered in the source:
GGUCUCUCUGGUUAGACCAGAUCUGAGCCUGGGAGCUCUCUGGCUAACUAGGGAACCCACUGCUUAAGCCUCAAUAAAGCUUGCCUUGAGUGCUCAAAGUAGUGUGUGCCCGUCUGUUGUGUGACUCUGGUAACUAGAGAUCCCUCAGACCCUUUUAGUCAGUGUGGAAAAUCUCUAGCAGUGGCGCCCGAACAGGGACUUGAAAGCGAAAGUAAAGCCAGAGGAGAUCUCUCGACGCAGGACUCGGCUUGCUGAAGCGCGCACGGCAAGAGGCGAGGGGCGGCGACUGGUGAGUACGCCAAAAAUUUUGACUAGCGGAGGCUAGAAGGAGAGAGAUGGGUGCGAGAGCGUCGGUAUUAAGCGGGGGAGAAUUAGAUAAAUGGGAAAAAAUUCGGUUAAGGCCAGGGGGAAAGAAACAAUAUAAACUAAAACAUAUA

Values are log2 Kdimer, the median over the changes at each position: higher means that changes there hinder dimer formation, below 0 that they favour it.
One numbering serves 1G, 2G and 3G.
A position is written with its base where known.
The source gives no letters past position 437.

| # | position | domain | 3G uncapped high-salt | 3G capped high-salt |
|---|---|---|---|---|
| 1 | C28 | TAR | -0.45 | -0.02 |
| 2 | C29 | TAR | 0.52 | 0.18 |
| 3 | A47 | TAR | -0.04 | 0.10 |
| 4 | A54 | TAR | -0.18 | -0.15 |
| 5 | A66 | PolyA | 0.17 | -0.16 |
| 6 | G99 | PolyA | 0.03 | -0.30 |
| 7 | U113 | none | -0.07 | -0.33 |
| 8 | C114 | none | 0.01 | 0.11 |
| 9 | U115 | none | -0.02 | -0.20 |
| 10 | U131 | PAS | 0.29 | 0.13 |
| 11 | A132 | PBS | 0.02 | 0.08 |
| 12 | A147 | PBS | 0.07 | 0.05 |
| 13 | C152 | PBS | -0.04 | 0.06 |
| 14 | G164 | PBS | -0.06 | -0.10 |
| 15 | C173 | PBS | -0.15 | -0.25 |
| 16 | G181 | PBS | -0.27 | -0.25 |
| 17 | G183 | PBS | 0.16 | -0.12 |
| 18 | G186 | PBS | -0.04 | -0.25 |
| 19 | C187 | PBS | -0.10 | 0.00 |
| 20 | C189 | PBS | 0.17 | 0.00 |
| 21 | C193 | PBS | -0.04 | -0.19 |
| 22 | G195 | PBS | 0.68 | 0.36 |
| 23 | G208 | PBS | -0.04 | 0.10 |
| 24 | C218 | antiPAS | -0.44 | -0.73 |
| 25 | G223 | antiPAS | 0.22 | 0.08 |
| 26 | G224 | none | -0.16 | 0.02 |
| 27 | A225 | none | -0.02 | -0.46 |
| 28 | A227 | CU | 0.70 | 1.22 |
| 29 | A235 | none | -0.87 | -1.03 |
| 30 | G240 | none | -0.09 | -0.48 |
| 31 | G241 | none | -0.26 | -0.34 |
| 32 | G246 | SL1 | 1.33 | 1.05 |
| 33 | A256 | SL1 | 1.00 | 0.74 |
| 34 | G257 | SL1 | 3.01 | 4.26 |
| 35 | C260 | SL1 | 6.67 | 5.22 |
| 36 | C264 | SL1 | 2.08 | 1.71 |
| 37 | G265 | SL1 | 2.90 | 2.68 |
| 38 | G270 | SL1 | 1.23 | 1.48 |
| 39 | C284 | SL2 | 0.10 | -0.09 |
| 40 | C299 | SL2 | 0.01 | -0.26 |
| 41 | U306 | none | 0.01 | -0.04 |
| 42 | U308 | none | -0.02 | 0.19 |
| 43 | U309 | none | 0.18 | 0.11 |
| 44 | A311 | none | 0.42 | 0.43 |
| 45 | A314 | SL3 | 0.27 | 0.18 |
| 46 | A332 | none | 0.06 | 0.35 |
| 47 | G339 | AUG | 0.17 | 0.14 |
| 48 | C349 | none | -0.12 | -0.18 |
| 49 | C352 | none | 0.11 | -0.10 |
| 50 | C362 | none | 0.21 | 0.15 |
| 51 | G363 | none | 0.14 | 0.24 |
| 52 | A371 | none | 0.05 | -0.04 |
| 53 | A387 | none | 0.05 | 0.06 |
| 54 | A388 | none | 0.09 | 0.03 |
| 55 | G394 | none | 0.08 | 0.07 |
| 56 | G395 | none | -0.01 | -0.03 |
| 57 | A404 | none | 0.06 | 0.01 |
| 58 | A415 | none | 0.03 | 0.07 |
| 59 | A421 | none | 0.05 | 0.19 |
| 60 | C426 | none | 0.07 | -0.09 |
| 61 | 440 | none | 0.08 | 0.13 |
| 62 | 447 | none | -0.01 | 0.01 |
| 63 | 466 | none | 0.18 | 0.11 |
| 64 | 475 | none | 0.07 | 0.08 |
| 65 | 476 | none | 0.10 | -0.01 |
| 66 | 478 | none | -0.15 | -0.08 |
| 67 | 484 | none | 0.03 | 0.06 |
| 68 | 488 | none | 0.04 | 0.00 |
| 69 | 489 | none | 0.03 | 0.17 |
| 70 | 503 | none | -0.02 | 0.07 |
| 71 | 507 | none | 0.04 | -0.13 |

A selection of 4 entries from above:

| position | domain | 3G uncapped high-salt | 3G capped high-salt |
|---|---|---|---|
| A314 | SL3 | 0.27 | 0.18 |
| U309 | none | 0.18 | 0.11 |
| A332 | none | 0.06 | 0.35 |
| G195 | PBS | 0.68 | 0.36 |